Test results reported in PubChem BioAssay AID1159583 (ICCB-Longwood Screening Facility, Harvard Medical School, 2016).
The list shows a part of the results, in another mix than the full data. Some salts or complexes appear as unconnected parts, following the source record. The source made the active and inactive calls. Rule as the data show it: active = fluorescence inhibition mostly above about 23% (no sharp cut-off); inactive = mostly below about 17%.

experiment: hypoxia reporter signal reduction in M. tuberculosis – fluorescence, absorbance growth readout, primary screen (AID 1159583); conditions: M. tuberculosis hypoxia-regulated fluorescent reporter, stronger effect = higher value, concentration not given here

Row | Compound | fluorescence inhibition
1 | NC(=O)Nc1ccc([As](=O)(O)O)cc1 | inactive: 3.47%
2 | O=C(O)COc1ccc([As](=O)(O)O)cc1[N+](=O)[O-] | inactive: 3.17%
3 | Nc1ccccc1[As](=O)(O)c1ccccc1 | inactive: -5.07%
4 | O=P(Nc1nccs1)(Oc1ccccc1)Oc1ccccc1 | inactive: -3.69%
5 | O=P(Nc1nccs1)(c1ccccc1)c1nc2ccccc2s1 (centres undefined) | inactive: 0.833%
6 | O=C(O)c1cccc(Nc2c([N+](=O)[O-])cc([N+](=O)[O-])cc2[N+](=O)[O-])c1 | inactive: 19.1%
7 | CCOP1(=S)c2c(C)nn(CCC#N)c2N=C(c2ccccc2F)N1C (centres undefined) | inactive: -4.52%
8 | CCOP(=O)(Nc1cccc2ccccc12)OCC | inactive: 6.81%
9 | CCCOP(=S)(Nc1nc(N)cc(=O)[nH]1)OCCC | inactive: 11.3%
10 | Cc1ccc(NCCc2c([N+](=O)[O-])cc([N+](=O)[O-])cc2[N+](=O)[O-])cc1 | inactive: 0.606%
11 | Cc1cc(C)cc(OP(C)(=O)Nc2ccccn2)c1 (centres undefined) | inactive: 6.57%
12 | CP(=O)(Nc1cccc(Br)c1)Oc1ccccc1 (centres undefined) | inactive: 7.44%
13 | CC1C=CCP(=O)(Oc2ccccc2)O1 (centres undefined) | inactive: -1.93%
14 | CCOC(=O)c1ccc(NP(C)(=O)Oc2cc(C)cc(C)c2)cc1 (centres undefined) | inactive: 3.2%
15 | Cc1cc(C)cc(OP(C)(=O)Nc2ccc(C)cc2C)c1 (centres undefined) | inactive: 0.465%
16 | O=[As](O)(c1cccc(O)c1)c1cccc(O)c1 | inactive: 4.4%
17 | COc1ccccc1OP(C)(=O)Nc1cccc(Br)c1 (centres undefined) | inactive: 10.1%
18 | CS(=O)(=O)c1ccc(Cl)c(NC(=O)COC(=O)C(O)(c2ccccc2)c2ccccc2)c1 | inactive: 15%
19 | O=[As](O)(O)c1cccnc1 | inactive: 6.79%
20 | COc1cc(C(=O)NCC2(N3CCOCC3)CCCCC2)cc(Cl)c1OC(C)C | inactive: -1.14%
21 | O=C(OC1CN2CCC1CC2)c1ccc(Cl)cc1 (centres undefined) | inactive: -2.79%
22 | CCC(CO)(C(=O)OC1CN2CCC1CC2)c1ccccc1 (centres undefined) | inactive: 2.82%
23 | COc1cc(I)ccc1[As](=O)(O)O | inactive: 11.2%
24 | COc1ccc2nc(NP(=O)(c3ccccc3)c3ccccc3)sc2c1 | inactive: 9.18%
25 | O=P1(N(CCCl)CCCl)Nc2ccccc2N1 | inactive: 11.7%

Row | Compound | fluorescence inhibition
26 | Cc1cc(=O)[nH]c(N[N+](=O)[O-])n1 | inactive: -3.26%
27 | CCN(CC)CCCOC(=O)C(O)(c1ccccc1)c1ccccc1 | inactive: 6.29%
28 | Cc1c2c(nc3ccccc13)SC(C(Cl)Cl)C2 (centres undefined) | inactive: 2%
29 | Cc1cc(C)cc(OP(C)(N)=O)c1 (centres undefined) | inactive: 6.68%
30 | COc1ccc(OP(C)(=O)Nc2cccc(F)c2)cc1 (centres undefined) | inactive: 6.58%
31 | O=[N+]([O-])c1cc([N+](=O)[O-])c(-c2ccn[nH]2)s1 | inactive: 40.9%
32 | CC(C)NC(=O)NP(=O)(Oc1ccccc1)Oc1ccccc1 | inactive: -0.864%
33 | COc1ccccc1OP(C)(=O)Nc1cc(Cl)ccc1C (centres undefined) | inactive: 12.8%
34 | O=C(OC1CN2CCC1CC2)c1cccc2[nH]cnc12 (centres undefined) | inactive: 19.3%
35 | Cc1ccc(NP(C)(=O)Oc2ccccc2)c(C)c1 (centres undefined) | inactive: 6.44%
36 | CC(C)c1ccc(OP(=O)(Nc2ccccn2)Oc2ccccc2F)cc1 (centres undefined) | inactive: 9.08%
37 | COc1ccccc1OP(C)(=O)Nc1ccc(C)cc1 (centres undefined) | inactive: 6.87%
38 | ClCCSc1nnc(-c2cccnc2)o1 | inactive: 20.3%
39 | COc1ccc2c(c1O)-c1c(O)c(OC)cc3c1C(C2)[N+](C)(C)CC3.O=[N+]([O-])c1cc([N+](=O)[O-])c([O-])c([N+](=O)[O-])c1[O-] (centres undefined) | inactive: 7.15%
40 | CCOC(=O)c1ccc(NP(C)(=O)Oc2ccccc2)cc1 (centres undefined) | inactive: -2.86%
41 | O=[N+]([O-])c1ccc2c(c1)C=Nc1ccccc1O2 | inactive: 11.6%
42 | Cc1ccc2nc3c(c(C)c2c1)CC(C(Cl)Cl)S3 (centres undefined) | inactive: 3.8%
43 | Cc1cccc(C)c1OP(C)(N)=O (centres undefined) | inactive: 0.989%
44 | Cc1ccc(OP(=O)(Nc2ccc([N+](=O)[O-])cn2)Oc2ccc(C)cc2)cc1 | inactive: 11.5%
45 | CC(C)(C)c1ccc(OP(C)(=O)Nc2ccc(SC(F)(F)F)cc2)cc1 (centres undefined) | inactive: -5.38%
46 | O=[N+]([O-])c1ccc(-c2cc([N+](=O)[O-])c(O)c([N+](=O)[O-])c2)cc1 | inactive: 4.22%
47 | COc1cc(C(=O)NCC2(N3CCOCC3)CCCCC2)ccc1OCC(C)C | inactive: 9.09%
48 | O=[As](O)(c1ccc(O)cc1)c1ccccc1O | inactive: 65.5%
49 | C[As](=O)(O)c1cccc(C(=O)O)c1 | inactive: 1.58%
